Measured data: PubChem BioAssay AID624099 (ICCB-Longwood, 2012)
Screen: 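Host factors E2 relies on to silence an HPV18 LCR reporter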 (primary screen). System: human C33A cervical carcinoma cells (HPV-negative) stably expressing BPV1 E2 and an HPV18 LCR luciferase reporter. Knock-down reagent: siRNA pool against human genes, 40 nM. Duration: 72 h. Measurement: 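Per-well luciferase luminescence, z-scored on each plate against the plate mean and SD with control wells left out, then averaged across three replicate plates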. Reading the numbers: mean z-score and z-score: higher = stronger reporter signal, weaker E2 silencing. Hit rule: 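Mean z ≥ 2 together with z ≥ 2 in two or more of the three replicates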.
Shown is one part, drawn at random, of about 21,000 reagents. Over the whole deposit, 497 (2.4%) are marked active. 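Higher z means weaker E2 silencing; only reporter increases were scored, and knock-downs that hurt cell survival may mask genuine repressor factors.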

SULT2B1 (sulfotransferase family 2B member 1) [SID134314223] showed mean z-score 0.41; z-score, replicate A = 0.3; z-score, replicate B = 0.56; z-score, replicate C = 0.37; inactive. Depletion of LINC00517 (long independently transcribed non-coding RNA 517) [SID134328483] came out at: mean z-score 1.93; z-score, replicate A = 2.2; z-score, replicate B = 1.8; z-score, replicate C = 1.78; inactive. After knock-down of ASPH (aspartate beta-hydroxylase) [SID134310371], the record shows mean z-score 1.53; z-score, replicate A = 1.25; z-score, replicate B = 1.35; z-score, replicate C = 1.99; inactive. Depletion of CPA4 (carboxypeptidase A4) [SID134311245] resulted in: mean z-score 1.76; z-score, replicate A = 2.19; z-score, replicate B = 1.8; z-score, replicate C = 1.28; inactive. Depletion of FUT3 (fucosyltransferase 3 (Lewis blood group)) [SID134313073] gave: mean z-score 1.9; z-score, replicate A = 1.93; z-score, replicate B = 1.81; z-score, replicate C = 1.94; inactive. Silencing of GPR35 (G protein-coupled receptor 35) [SID134311009] came out at: mean z-score 2.11; z-score, replicate A = 2.08; z-score, replicate B = 2.12; z-score, replicate C = 2.12; active.

Against OR10W1 (olfactory receptor family 10 subfamily W member 1) [SID134329527] the deposit lists mean z-score -0.12; z-score, replicate A = 0.17; z-score, replicate B = -0.17; z-score, replicate C = -0.35; inactive. Against SRF (serum response factor) [SID134314512], the entry reads mean z-score 0.11; z-score, replicate A = 0.1; z-score, replicate B = 0.34; z-score, replicate C = -0.1; inactive. After knock-down of PMS2P5 [SID134321754] the results were mean z-score 0.42; z-score, replicate A = 0.5; z-score, replicate B = 0.47; z-score, replicate C = 0.28; inactive. RASA2 (RAS p21 protein activator 2) [SID134310399] gave mean z-score 0.24; z-score, replicate A = 0.2; z-score, replicate B = 0.08; z-score, replicate C = 0.44; inactive. Knock-down of ZNF683 (zinc finger protein 683) [SID134322210] resulted in: mean z-score 0; z-score, replicate A = 0.12; z-score, replicate B = 0.41; z-score, replicate C = -0.54; inactive. LINC00310 (long independently transcribed non-coding RNA 310) [SID134320633] showed mean z-score -2.68; z-score, replicate A = -2.53; z-score, replicate B = -2.28; z-score, replicate C = -3.22; inactive.

After knock-down of URB2 (URB2 ribosome biogenesis homolog) [SID134324668], the screen gave mean z-score 1.05; z-score, replicate A = 0.8; z-score, replicate B = 1.05; z-score, replicate C = 1.29; inactive.

Quoted from the entries so far for reference:
ASPH (aspartate beta-hydroxylase) [SID134310371] | mean z-score: 1.53; z-score, replicate A: 1.25; z-score, replicate B: 1.35; z-score, replicate C: 1.99; Call: inactive
CPA4 (carboxypeptidase A4) [SID134311245] | mean z-score: 1.76; z-score, replicate A: 2.19; z-score, replicate B: 1.8; z-score, replicate C: 1.28; Call: inactive

The listing continues.
Depletion of RAB8B (RAB8B, member RAS oncogene family) [SID134313601] gave: mean z-score -0.31; z-score, replicate A = -0.08; z-score, replicate B = -0.39; z-score, replicate C = -0.45; inactive. Silencing of LOC401859 (retired record) [SID134328702] resulted in: mean z-score -0.05; z-score, replicate A = 0.45; z-score, replicate B = -0.07; z-score, replicate C = -0.53; inactive. Against ETV3 (ETS variant transcription factor 3) [SID134315009], the entry reads mean z-score 1.26; z-score, replicate A = 1.42; z-score, replicate B = 1.19; z-score, replicate C = 1.18; inactive. Against NPY5R (neuropeptide Y receptor Y5) [SID134311113], the values are mean z-score 0.67; z-score, replicate A = 0.71; z-score, replicate B = 0.69; z-score, replicate C = 0.61; inactive. Against LOC389184 (retired record) [SID134327399], the values are mean z-score 1.11; z-score, replicate A = 0.83; z-score, replicate B = 1.01; z-score, replicate C = 1.49; inactive. With knock-down of ZFAND5 (zinc finger AN1-type containing 5) [SID134314425], the record shows mean z-score 0.68; z-score, replicate A = 0.77; z-score, replicate B = 0.6; z-score, replicate C = 0.66; inactive.

INTS8 (integrator complex subunit 8) [SID134323997] scored mean z-score 0.36; z-score, replicate A = 0.39; z-score, replicate B = 0.63; z-score, replicate C = 0.06; inactive. NRIP3 (nuclear receptor interacting protein 3) [SID134318070] showed mean z-score -0.2; z-score, replicate A = -0.15; z-score, replicate B = -0.21; z-score, replicate C = -0.23; inactive.
